Results deposited as PubChem BioAssay AID504761 (Drosophila RNAi Screening Center, 2011).
The deposit covers about 22,000 reagents; this is a random part of those with a known target gene and a result. In the full data, 116 (0.52%) were called active. 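Calls depend on retest data that are not deposited; infection was ranked per plate without normalising between plates; the unit of the infection score is not given.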 The raw values are shown without normalisation. Entries without a mark were called inactive. A plus sign joins genes that one reagent is predicted to hit. The record does not give: the amount of reagent, the time to read-out.

Test: 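Fly genes whose silencing reduces dengue virus type 2 infection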 (primary screen)
Cells: D.Mel-2 cells from Drosophila
Reagent: long dsRNA against Drosophila genes
Treatment: infection with dengue virus type 2; dose and infection time not stated
Measurement: 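Per well on two replicate plates, imaging gave the percent of cells positive for viral envelope protein, ranked by infection, and a nuclear count of cells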
Direction: infection score: higher = more virus-infected cells; cell count: higher = more cells in the well
Rule for the call: 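Low infection ranks in the two replicates (chance level up to 0.065) followed by a retest with a 1.5-fold or larger significant decrease, p below 0.05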
Meaning of the calls: active = confirmed: knock-down lowers infection; inactive = not picked or not confirmed

gene | DRSC id | infection score, replicate 1 | infection score, replicate 2 | cell count, replicate 1 | cell count, replicate 2
Uch-L5 | DRSC11314 | 8.09 | 2.15 | 6055 | 6363
Uch-L5 | DRSC27736 | 7.9 | 17.4 | 6396 | 6804
Rbp | DRSC15724 | 2.2 | 5.26 | 5146 | 4997
Unc-115b + p24-2 | DRSC16492 | 9.74 | 16.9 | 2320 | 4999
Proc | DRSC22998 | 0.62 | 1.61 | 6252 | 6016
CG7914 | DRSC20068 | 5.02 | 2.34 | 6036 | 6103
CG7914 | DRSC28931 | 2.65 | – | 981 | 371
Papss | DRSC11246 | 1.85 | 5.16 | 7043 | 5933
Papss | DRSC27101 | 10.1 | 24.5 | 6961 | 6946
CG3045 | DRSC04331 | 20.9 | 12.7 | 6014 | 6087
Vrp1 | DRSC04148 | 18.2 | 44.6 | 5621 | 4452
Vrp1 | DRSC26671 | 8.51 | 7.94 | 5923 | 6208
Nlp | DRSC16759 | 5.03 | 14.4 | 6580 | 6632
Nlp | DRSC26421 | 1.87 | 1.31 | 6485 | 6199
obst-F | DRSC10805 | 2.31 | 5.59 | 6743 | 6659
obst-F | DRSC30097 | 2.9 | 8.93 | 6545 | 5747
CG14629 | DRSC18476 | 2 | 1.19 | 6098 | 6701
CG14629 | DRSC23909 | 10.1 | 8.51 | 6086 | 6086

Targets listed so far whose gene name starts with U or u (3):
gene | DRSC id | infection score, replicate 1 | infection score, replicate 2 | cell count, replicate 1 | cell count, replicate 2
Uch-L5 | DRSC11314 | 8.09 | 2.15 | 6055 | 6363
Uch-L5 | DRSC27736 | 7.9 | 17.4 | 6396 | 6804
Unc-115b + p24-2 | DRSC16492 | 9.74 | 16.9 | 2320 | 4999

Further entries:
gene | DRSC id | infection score, replicate 1 | infection score, replicate 2 | cell count, replicate 1 | cell count, replicate 2
CG10481 | DRSC02063 | 19.1 | 6.54 | 4104 | 6577
GstD2 | DRSC16684 | 2.28 | 13.2 | 6845 | 4245
GstD2 | DRSC27903 | 28.7 | 30.2 | 5520 | 5545
CG10026 | DRSC02010 | 5.68 | 14.5 | 1955 | 6997
Stacl + CG8179 (retired record) | DRSC23019 | 2.56 | 1.95 | 6677 | 7039
Stacl + CG8179 (retired record) | DRSC25838 | 1.61 | 1.66 | 6204 | 6266
Rme-8 | DRSC07054 | 19.9 | 24.6 | 5764 | 6300
CG6337 | DRSC06977 | 6.29 | 6.78 | 6643 | 6295
CG6337 | DRSC21870 | 10.9 | 12.6 | 6293 | 5870
Schip1 | DRSC02851 | 3.2 | 2 | 5930 | 6346
Schip1 | DRSC28775 | 12.9 | 6.55 | 3180 | 2643
Pdi | DRSC11250 | 1.6 | 0.38 | 6134 | 6502
Pdi | DRSC26376 | 4.88 | 2.08 | 6378 | 5584
CG15035 | DRSC17967 | 11.2 | 20.3 | 5592 | 2662
Art7 | DRSC04588 | 20.6 | 14.4 | 6089 | 6060
Art7 | DRSC26145 | 1.21 (active) | 0.97 | 6802 | 6363
CG4679 | DRSC06880 | 8.29 | 9.81 | 5257 | 4649
CG4679 | DRSC28357 | 16.8 | 4.1 | 4664 | 1145
PGRP-SD | DRSC10856 | 3.61 | 5.59 | 6115 | 5847
CG17154 | DRSC10253 | 1.93 | 1.58 | 5970 | 6843
CG43897 | DRSC10967 | 3.2 | 3.61 | 5785 | 5920
CG43897 | DRSC25785 | 1.97 | 2.94 | 6509 | 5987
